Results of unrelated studies side by side (data: NIAID ChemDB).

All rows: tests on isolated targets; organism: HIV-1; target: Protease; read-out: inhibition

Blank or dashed fields: not listed here. Rows are shuffled and stem from different studies. Percent inhibition refers to the dose given; in toxicity tests it is the harm to the cells.

structure | tested at | method | value
CC(C)[C@H](NC(=O)CCc1cccnc1)C(=O)N[C@@H](Cc1ccccc1)C(O)[C@H](Cc1ccccc1)NC(=O)[C@@H](NC(=O)CCc1cccnc1)C(C)C | 0.1 µM | fluorescence | 81%
COC(=O)c1cccc(CNC(=O)[C@H]2N(C(=O)[C@@H](O)[C@H](Cc3ccccc3)NC(=O)COc3c(C)cccc3C)CSC2(C)C)c1 | 0.05 µM | HPLC | 45%
O=c1c(O)c(-c2ccc(O)c(O)c2)oc2c(O[C@@H]3O[C@H](CO)[C@@H](O)[C@H](O)[C@H]3O)c(O)cc(O)c12 | 50 µg/mL | fluorescence | 51.2%
CC1=CC(C)(C)Nc2ccc(OC(=O)c3ccccc3Br)cc21 | 150 µM |  | 34.67%
Cc1c(O)cccc1C(=O)N[C@@H](Cc1ccccc1)[C@H](O)C(=O)N1CSC(C)(C)[C@H]1C(=O)NN(C)c1ccccc1 | 0.05 µM | HPLC | 12.9%
O=C1CC2C(=O)Oc3cc(cc(O)c3O)C(=O)O[C@@H]3O[C@@H]4COC(=O)c5cc(O)c(O)c(c5[C@H]2C(=O)O[C@@H]2[C@H]3OC(=O)c3cc(O)c(O)cc3-c3c(cc5nc6ccccc6nc5c3O)C(=O)O[C@@H]24)O1 | 50 µg/mL | HPLC | 0%
O=c1[nH]c2ccc(S(=O)(=O)N3CCc4ccccc4C3)cc2[nH]c1=O | 150 µM |  | 31.02%
O=c1c(O)c(-c2ccc(O)cc2)oc2cc(O)cc(O)c12 | 50 µg/mL | HPLC | 21%
Cc1cccc(C)c1OCC(=O)N[C@@H](Cc1ccccc1)[C@H](O)C(=O)N1CSC(C)(C)[C@H]1C(=O)NCc1ccc2c(c1)OCO2 | 0.05 µM | HPLC | 27.6%
CC1=CC(C)(C)Nc2ccc(OC(=O)c3ccc4c(c3)OCO4)cc21 | 150 µM |  | 36.42%
Cc1c(O)cccc1C(=O)N[C@@H](Cc1ccccc1)[C@H](O)C(=O)N1CSC(C)(C)C1C(=O)NC(C)(C)c1ccccc1 | 0.05 µM | HPLC | 82.2%
CC(C)[C@H](NC(=O)OCc1ccccc1)C(=O)N[C@@H](Cc1ccccc1)C(=O)C(F)(F)CCc1ccccc1 | 0.005 µM | fluorescence | 51%
Cc1c(O)cccc1C(=O)N[C@@H](Cc1ccccc1)[C@H](O)C(=O)N1CSC(C)(C)[C@H]1C(=O)NC12CC3CC(CC(C3)C1)C2 | 0.05 µM | HPLC | 7.1%
CC(C)[C@H](NC(=O)CCc1ccccn1)C(=O)N[C@@H](Cc1ccccc1)[C@@H](O)[C@H](O)[C@H](Cc1ccccc1)NC(=O)[C@@H](NC(=O)CCc1ccccn1)C(C)C | 0.001 µM | fluorescence | 69%
COc1cc(O)c2c(=O)c(O)c(-c3ccc(OC)c(O)c3)oc2c1 | 50 µg/mL | fluorescence | 12.9%
CC(C)(C)OC(=O)N[C@@H](Cc1ccccc1)[C@H](O)[C@H](O)[C@H](Cc1ccccc1)NC(=O)OC(C)(C)C | 0.01 µM | fluorescence | 44%
O=C(OC1CCCCC1)c1ccc2c(c1)C1C=CCC1[C@@H](C(=O)O)N2 | 150 µM |  | 57.65%
CC(C)[C@H](NC(=O)OCCN1CCCC1)C(=O)N[C@@H](Cc1ccccc1)[C@@H](O)[C@H](Cc1ccccc1)NC(=O)[C@@H](NC(=O)OCc1ccccc1)C(C)C | 0.005 µM | fluorescence | 31%
CC1=CC(C)(C)Nc2ccc(OC(=O)c3sc4cc([N+](=O)[O-])ccc4c3Cl)cc21 | 150 µM |  | 43.07%
O=c1c(O)c(-c2ccc(O)cc2O)oc2cc(O)cc(O)c12 | 50 µg/mL | HPLC | 8.8%
Cc1ccccc1-n1nnc(C(c2ccccc2)(c2ccccc2)n2ccnc2)c1C | 0.4 µg/mL | substrate cleavage / fluorescence | 8.9%
O=C(O[C@@H]1O[C@@H]2COC(=O)c3cc(O)c(O)c(O)c3-c3c(cc(O)c(O)c3O)C(=O)O[C@H]([C@H]1O)[C@@H]2O)c1cc(O)c(O)c(O)c1 | 50 µg/mL | HPLC | 100%
CC(C)[C@H](NC(=O)Cc1ccccn1)C(=O)N[C@@H](Cc1ccccc1)[C@@H](O)[C@H](O)[C@H](Cc1ccccc1)NC(=O)[C@@H](NC(=O)Cc1ccccn1)C(C)C | 0.005 µM | fluorescence | 62%
CCOc1ccccc1CNC(=O)[C@H]1N(C(=O)[C@@H](O)[C@H](Cc2ccccc2)NC(=O)COc2c(C)cccc2C)CSC1(C)C | 0.05 µM | HPLC | 41.7%
CC(C)C[C@H](NC(=O)OCc1ccccc1)C(=O)N[C@@H](CC(N)=O)C(=O)NC(Cc1ccccc1)C(O)C(Cc1ccccc1)NC(=O)OC(C)(C)C | 0.1 µM | fluorescence | 79%
O=C(Nc1ccc2[nH]c(=S)sc2c1)c1ccccc1 | 150 µM |  | 34.86%
COc1ccc(-c2cc(=O)c3c(O)cc(OC4OC(COC5OC(C)C(O)C(O)C5O)C(O)C(O)C4O)cc3o2)cc1 | 50 µg/mL | fluorescence | 60%
CC(C)[C@H](CC(=O)N(C)Cc1ccccn1)C(=O)N[C@@H](Cc1ccccc1)[C@@H](O)[C@H](O)[C@H](Cc1ccccc1)NC(=O)[C@@H](CC(=O)N(C)Cc1ccccn1)C(C)C | 0.01 µM | fluorescence | 45%
CC1=NNc2nc3c(c(=O)n(Cc4ccccc4)c(=O)n3C)n2C1 | 150 µM |  | 34.92%

2 of the rows above, restated:

| structure | tested at | method | value |
|---|---|---|---|
| COc1cc(O)c2c(=O)c(O)c(-c3ccc(OC)c(O)c3)oc2c1 | 50 µg/mL | fluorescence | 12.9% |
| COc1ccc(-c2cc(=O)c3c(O)cc(OC4OC(COC5OC(C)C(O)C(O)C5O)C(O)C(O)C4O)cc3o2)cc1 | 50 µg/mL | fluorescence | 60% |